In US10167299B2, “1-(3-aminopropyl) substituted cyclic amine compounds, preparation method therefor, and pharmaceutical compositions and uses thereof” (SHANGHAI INSTITUTE OF MATERIA MEDICA, CHINESE ACADEMY OF …, priority 2013, dated 2019):

Tested on: HIV-1SF162 virus strain
Assay: Inhibition activity on TZM-bl cells infected with HIV-1SF162
Details: TZM-bl cells infected with HIV-1SF162, conclusion from Table 3

Substance: 4-ethyl-N-[(1S)-3-[exo-3-(3-isopropyl-5-methyl-4H-1,2,4-triazol-4-yl)-8-azabicyclo[3.2.1]octane-8-yl]-1-(thiophen-3-yl)propyl]cyclopentane-1-carboxamide [Compound 20]
- cytotoxicity in vitro and therapeutic index in words, versus positive control compound: comparable with the positive control compound
